Measurements reported in PubChem BioAssay AID624099 (ICCB-Longwood, 2012)
Purpose: 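Knock-downs relieving repression by E2 of an HPV18 LCR luciferase reporter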 (primary screen). System: human C33A cervical carcinoma cells (HPV-negative) stably expressing BPV1 E2 and an HPV18 LCR luciferase reporter. Reagent: siRNA pool against human genes, 40 nM. Time to read-out: 72 h. Read-out: 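Per-well luciferase luminescence, z-scored on each plate against the plate mean and SD with control wells left out, then averaged across three replicate plates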. Scale: mean z-score and z-score: higher = stronger reporter signal, weaker E2 silencing. Call rule: 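Mean z ≥ 2 together with z ≥ 2 in two or more of the three replicates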.
This is an unselected part of about 21,000 reagents tested. In the full data, 497 (2.4%) got an active call. 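Higher z means weaker E2 silencing; only reporter increases were scored, and knock-downs that hurt cell survival may mask genuine repressor factors.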

With knock-down of FNDC11 the results were mean z-score -0.31; z-score, replicate A = -0.54; z-score, replicate B = -0.23; z-score, replicate C = -0.15; inactive.
With knock-down of AASDHPPT the results were mean z-score 2.54; z-score, replicate A = 2.23; z-score, replicate B = 2.77; z-score, replicate C = 2.62; active.
LIPT1 showed mean z-score 0.09; z-score, replicate A = 0.13; z-score, replicate B = 0.22; z-score, replicate C = -0.09; inactive.
Against SNRPD2P1 the deposit lists mean z-score 0.25; z-score, replicate A = 0.24; z-score, replicate B = 0.3; z-score, replicate C = 0.2; inactive.
For GABRA1, the entry reads mean z-score 0.8; z-score, replicate A = 0.76; z-score, replicate B = 0.68; z-score, replicate C = 0.95; inactive.
MRPL36 scored mean z-score 0.32; z-score, replicate A = 0.01; z-score, replicate B = 0.47; z-score, replicate C = 0.46; inactive.
Against H2AC20, the entry reads mean z-score -1.08; z-score, replicate A = -1.39; z-score, replicate B = -0.92; z-score, replicate C = -0.94; inactive.
Against DDIT4 the deposit lists mean z-score -1.8; z-score, replicate A = -1.76; z-score, replicate B = -1.8; z-score, replicate C = -1.85; inactive.
After knock-down of MRC2 the results were mean z-score -0.87; z-score, replicate A = -0.99; z-score, replicate B = -0.85; z-score, replicate C = -0.78; inactive.
For C1QTNF2, the entry reads mean z-score 0.31; z-score, replicate A = 0.33; z-score, replicate B = 0.74; z-score, replicate C = -0.15; inactive.

4 entries from above in another layout.
| target | mean z-score | z-score, replicate A | z-score, replicate B | z-score, replicate C | activity call |
| --- | --- | --- | --- | --- | --- |
| MRPL36 | 0.32 | 0.01 | 0.47 | 0.46 | inactive |
| H2AC20 | -1.08 | -1.39 | -0.92 | -0.94 | inactive |
| DDIT4 | -1.8 | -1.76 | -1.8 | -1.85 | inactive |
| MRC2 | -0.87 | -0.99 | -0.85 | -0.78 | inactive |

Continued.
Depletion of LOC390760 (retired record) gave: mean z-score -0.19; z-score, replicate A = -0.12; z-score, replicate B = -0.06; z-score, replicate C = -0.4; inactive.
Silencing of NBPF1 gave: mean z-score -0.14; z-score, replicate A = -0.55; z-score, replicate B = 0.02; z-score, replicate C = 0.1; inactive.
Depletion of VDR gave: mean z-score 0.74; z-score, replicate A = 0.65; z-score, replicate B = 0.74; z-score, replicate C = 0.83; inactive.
Knock-down of CDK11A came out at: mean z-score -1.39; z-score, replicate A = -1.46; z-score, replicate B = -1.19; z-score, replicate C = -1.53; inactive.
TMEM126A showed mean z-score -0.16; z-score, replicate A = -0.25; z-score, replicate B = -0.04; z-score, replicate C = -0.2; inactive.
With knock-down of C1QA, the screen gave mean z-score 0.17; z-score, replicate A = 0.17; z-score, replicate B = 0.14; z-score, replicate C = 0.21; inactive.
Against RIOX1, the entry reads mean z-score -0.28; z-score, replicate A = -0.52; z-score, replicate B = -0.49; z-score, replicate C = 0.16; inactive.
After knock-down of SERPINB7, the screen gave mean z-score -0.69; z-score, replicate A = -0.48; z-score, replicate B = -0.95; z-score, replicate C = -0.65; inactive.
LOC388148 (retired record) gave mean z-score 0.84; z-score, replicate A = 1.07; z-score, replicate B = 0.74; z-score, replicate C = 0.73; inactive.
Depletion of KDSR gave: mean z-score -0.25; z-score, replicate A = -0.29; z-score, replicate B = -0.25; z-score, replicate C = -0.2; inactive.
For CENPH, the values are mean z-score -0.35; z-score, replicate A = -0.51; z-score, replicate B = -0.43; z-score, replicate C = -0.11; inactive.
Depletion of LOC338829 (retired record) came out at: mean z-score 0.37; z-score, replicate A = 0.37; z-score, replicate B = 0.48; z-score, replicate C = 0.28; inactive.
Depletion of KCNK17 resulted in: mean z-score 0.35; z-score, replicate A = 0.46; z-score, replicate B = 0.02; z-score, replicate C = 0.58; inactive.
Depletion of FADS6 gave: mean z-score 0.9; z-score, replicate A = 3.23; z-score, replicate B = -0.14; z-score, replicate C = -0.4; inactive.
Depletion of PASK gave: mean z-score -1.25; z-score, replicate A = -0.88; z-score, replicate B = -1.12; z-score, replicate C = -1.74; inactive.
HARS2 showed mean z-score 0.39; z-score, replicate A = 0.55; z-score, replicate B = 0.24; z-score, replicate C = 0.39; inactive.
For LOC388752 (retired record) the deposit lists mean z-score -0.36; z-score, replicate A = -0.3; z-score, replicate B = -0.2; z-score, replicate C = -0.58; inactive.
